# Sequence variants of PSTVd loop 15 after infection

The measurements come from Wu et al. 2024 (doi:10.1371/journal.ppat.1012142).

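Three N. benthamiana plants were inoculated with the whole mutant pool. Samples came from the inoculated region at 5 days, the leaf margin at 10 and upper systemic leaves at 12.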

PSTVd intermediate strain, loop 15: wild type GGAAACCGCUACUAC, pool pattern GGAAACCGNNNNNNC; upper and lower strand joined, each 5' to 3', the first 7 letters being the upper strand, closing pairs included.

Numbers give reads per thousand; 0 = not seen among the reads, higher = more abundant. Each site shows the three plants. "Pool" is the share in the plasmid pool used as inoculum, on the same scale. The inoculated region was read from the minus strand, the other sites from the plus strand. Wild type was 33.9 per thousand in the pool and the most common sequence in every sample (inoculated region 202, 200, 159; leaf margin 724, 746, 710; systemic leaves 856, 883, 880). The authors trace changes outside the varied positions to PCR and sequencing errors or to mutation in the plant; presence does not show that a variant is infectious alone. With 43,870-66,106 reads a sample, very low values are single reads.

GGAAACCGUUGGGUC (pool 0.256) read inoculated region 0.0491 / 0.0482 / 0; leaf margin 0 / 0.0223 / 0; systemic leaves 0 / 0 / 0. GGAAACCGUGAUCUC (pool 0.224) gave inoculated region 0.246 / 0.337 / 0.362; leaf margin 0.113 / 0 / 0.160; systemic leaves 0.0161 / 0 / 0. GGAAACCGCCCUUGC (pool 0.224) read inoculated region 0.0983 / 0.0964 / 0.0381; leaf margin 0 / 0 / 0; systemic leaves 0 / 0 / 0. For GGAAACCGACUGGAC (pool 0.272) the result was inoculated region 0.131 / 0.0964 / 0.0952; leaf margin 0 / 0 / 0; systemic leaves 0.0322 / 0 / 0. GGAAACCGGACAGCC (pool 0.208) read inoculated region 0.0819 / 0.177 / 0.0952; leaf margin 0 / 0.0223 / 0.0401; systemic leaves 0 / 0 / 0. For GGAAACCGACGAUGC (pool 0.240) the result was inoculated region 0.147 / 0.0643 / 0.209; leaf margin 0.0162 / 0.0223 / 0; systemic leaves 0 / 0 / 0. For GGAAACCGUGGUCGC (pool 0.320) the result was inoculated region 0.311 / 0.386 / 0.152; leaf margin 0 / 0 / 0; systemic leaves 0 / 0 / 0. For GGAAACCGCUGCGCC (pool 0.336) the result was inoculated region 0.115 / 0.161 / 0.133; leaf margin 0 / 0 / 0; systemic leaves 0 / 0 / 0.

GGAAACCGAACGAAC (pool 0.272) gave inoculated region 0.344 / 0.305 / 0.400; leaf margin 0.0162 / 0 / 0.0200; systemic leaves 0 / 0 / 0. GGAAACCGUGUUGAC (pool 0.192) gave inoculated region 0.115 / 0.112 / 0.0381; leaf margin 0.0162 / 0 / 0.0401; systemic leaves 0 / 0 / 0. With GGAAACCGUUAACCC (pool 0.272) the assay gave inoculated region 0.0655 / 0.0482 / 0.0952; leaf margin 0 / 0 / 0; systemic leaves 0 / 0 / 0. GGAAACCGCCCAUCC (pool 0.144) gave inoculated region 0.0491 / 0.129 / 0.0952; leaf margin 0.0162 / 0 / 0.0200; systemic leaves 0 / 0 / 0. GGAAACCGACCCCAC (pool 0.208) read inoculated region 0.180 / 0.0482 / 0.190; leaf margin 0 / 0 / 0.0401; systemic leaves 0 / 0 / 0. With GGAAACCGUGACUCC (pool 0.0800) the assay gave inoculated region 0.246 / 0.353 / 0.228; leaf margin 0.0808 / 0.0668 / 0.140; systemic leaves 0.0161 / 0 / 0. With GGAAACCGUUUGUCC (pool 0.160) the assay gave inoculated region 0.295 / 0.289 / 0.400; leaf margin 0.0808 / 0.0891 / 0.200; systemic leaves 0.0483 / 0 / 0. For GGAAACCGGUUAACC (pool 0.320) the result was inoculated region 0.147 / 0.112 / 0.133; leaf margin 0 / 0 / 0.0200; systemic leaves 0 / 0 / 0.

GGAAACCGCAUUUCC (pool 0.416) read inoculated region 0.131 / 0.0803 / 0.0952; leaf margin 0 / 0 / 0.0200; systemic leaves 0.0161 / 0 / 0. GGAAACCGAACCACC (pool 0.208) gave inoculated region 0.180 / 0.161 / 0.152; leaf margin 0.0162 / 0 / 0.0200; systemic leaves 0 / 0 / 0. With GGAAACCGCACAUCC (pool 0.320) the assay gave inoculated region 0.0819 / 0.0964 / 0.0381; leaf margin 0 / 0 / 0; systemic leaves 0 / 0 / 0. With GGAAACCGCUAGUGC (pool 0.320) the assay gave inoculated region 0.557 / 0.851 / 0.685; leaf margin 0.0970 / 0.0668 / 0.160; systemic leaves 0.0161 / 0.0756 / 0.0912. For GGAAACCGCGUGGUC (pool 0.256) the result was inoculated region 0.442 / 0.659 / 0.248; leaf margin 0.0323 / 0 / 0; systemic leaves 0.0161 / 0 / 0.0228. GGAAACCGGUGAGCC (pool 0.160) gave inoculated region 0.0819 / 0.0803 / 0.114; leaf margin 0 / 0 / 0.0601; systemic leaves 0 / 0 / 0. With GGAAACCGACUCGUC (pool 0.208) the assay gave inoculated region 0.147 / 0.112 / 0.0571; leaf margin 0 / 0 / 0; systemic leaves 0.0161 / 0 / 0. GGAAACCGCACGCGC (pool 0.176) read inoculated region 0.0491 / 0.129 / 0.133; leaf margin 0 / 0.0223 / 0; systemic leaves 0 / 0 / 0.

GGAAACCGUACUCGC (pool 0.208) gave inoculated region 0.0819 / 0.0803 / 0.152; leaf margin 0 / 0 / 0.0401; systemic leaves 0 / 0 / 0. For GGAAACCGGCUUCGC (pool 0.272) the result was inoculated region 0.131 / 0.0964 / 0.0762; leaf margin 0.0162 / 0.0223 / 0.0200; systemic leaves 0 / 0 / 0. GGAAACCGUAUGUGC (pool 0.256) read inoculated region 0.344 / 0.386 / 0.324; leaf margin 0.113 / 0.134 / 0.160; systemic leaves 0.0161 / 0 / 0.0228. GGAAACCGAUCCAGC (pool 0.208) gave inoculated region 0.131 / 0.0803 / 0.0381; leaf margin 0 / 0 / 0.0200; systemic leaves 0 / 0 / 0.

The last 2 entries again:

| sequence | pool | inoculated region | leaf margin | systemic leaves |
|---|---|---|---|---|
| GGAAACCGUAUGUGC | 0.256 | 0.344 / 0.386 / 0.324 | 0.113 / 0.134 / 0.160 | 0.0161 / 0 / 0.0228 |
| GGAAACCGAUCCAGC | 0.208 | 0.131 / 0.0803 / 0.0381 | 0 / 0 / 0.0200 | 0 / 0 / 0 |